From article PMC3828167 (PLoS Pathogens, 2013) come the findings set out here.

In the test the target is Legionella pneumophila RalF Sec7 domain with E103K (LpRalF^Sec7/E103K) (Legionella pneumophila, UniProt Q8RT31 1-201, E103K). The test can be described thus: SEC. For orientation: SEC sorts molecules by how far they enter the pores of the column.

B1: Human Arf1 lacking its N-terminal alpha-helix (Δ17Arf1) (domain or fragment, UniProt P84077 18-181, looked up)
chain: MRILMVGLDAAGKTTILYKLKLGEIVTTIPTIGFNVETVEYKNISFTVWDVGGQDKIRPLWRHYFQNTQGLIFVVDSNDRERVNEAREELMRMLAEDELRDAVLLVFANKQDLPNAMNAAEITDKLGLHSLRHRNWYIQATCATSGDGLYEGLDWLSNQLRNQK
notes: also called Arf1-GDP; nucleotide-free Arf1
For the molecule B1, the binding result was “binds”.
